Assay results reported in article PMC10100716.
Tags and fusion partners may be left off the protein sequences shown. The exact form of at least one protein or probe is not confirmed. Weaker means in comparison with the reference protein, sequence or condition of that experiment.

Target: T1, Cra-His6 (FruR) (Salmonella enterica serovar Typhimurium) (UniProt P0A2P8)
T1 sequence (looked up): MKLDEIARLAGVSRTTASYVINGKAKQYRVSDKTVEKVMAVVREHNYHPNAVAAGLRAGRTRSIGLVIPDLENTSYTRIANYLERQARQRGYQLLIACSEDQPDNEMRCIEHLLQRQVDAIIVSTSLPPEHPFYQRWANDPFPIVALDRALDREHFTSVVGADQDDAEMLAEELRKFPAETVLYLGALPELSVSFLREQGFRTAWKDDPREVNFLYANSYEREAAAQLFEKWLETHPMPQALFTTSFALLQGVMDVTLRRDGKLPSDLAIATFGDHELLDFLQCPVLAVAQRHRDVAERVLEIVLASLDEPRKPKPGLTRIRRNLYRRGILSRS
Experiment: EMSA
Settings: 10 mM Tris-HCl pH 8.0, 5% glycerol, 0.1 mM EDTA, 1 mM DTT, 37 C 20 min, 40 ng DNA, 6% native PAGE, ethidium bromide stain, recombinant protein, residues 1-334, protein details: C-terminal His6, probe letters rebuilt from the primers and the genome

[1] = fructose-1,6-bisphosphate (up to 50 mM)

Sequence | binding result (250 uM c-di-GMP (tended to facilitate binding)) | binding result [1] | binding result (no FBP, Cra 0-16 uM)
AGACAACTGGTTTTTGGCAAAGATTTACCTTCCTTTGCAAAGAGATGTAACCAGGATATTTTACACTTCGAAATTTCTCATTATCGAAAACAAAATTACGGATCTCCATCACACAAAATATTTTTTTCGATATCTAAAATAATTCACGAAAATCATGCGTTTTTCGTTGTAACCCTCATCTGAATCGATTCGCTTGCGGACGGCGATTCAAAAAATACATCTGTCAAGTTGATGTGTTGACAATAATAAAGGAGGTAGCAAGTGACCATTGCTATTGTTATAGGCACACATGGTTGGGCTGCAGAGCAGTTACTTAAAACAGCCGAAATGC (double strand) [PmanX] | binds | binds more weakly | binds
AGCATCAGCGATTTACCGACCTTTTGCAGGTTAGCAAATGCATTCTTAAACATAATTGAGAGTGCTCCTGAGTATTTGTGCTTTTCTACGTTCTCACGCATTGGCGAGGGGGGAGAACCCCGCCGTGGACAGGACATCTAAGTGCCCTTTTATTTATTACACAGAGTAAAATAAATACGTCTGATTTTGTTTGACGGCTATCACGTTTCAGCGCCAGATAGCCTAAAAAGTATCACATTCTGCCAAAATGAGTTTCCGAATGTTTCCATAAGCTCGCTCACCGCCCCTTTTGTGGCGGTGAACTTTACGCGTTTTGTTTATTAATTACGAGCTTTAAAAAAACTCGTTTAACGGATTGATGACAGGCGAGACGCGTCAATATGGAACA (double strand) [PptsG] | – | binds more weakly | binds
